# From patent US20250382355A1 (Merck Sharp & Dohme, published 2025)
# Substitutions are numbered along the chain they refer to.
# B1: 9B2 VHH-Fc (Fc fusion)
# chain: QVQLVESGGGLVQPGGSLRLSCAASGFTLDNYAIGWFRQAPGKEREGVSCISSSDGDTQYADSVKGRFTISRDNAKNTVYLQMNSLKPEDTAVYYCAVEKVYARSWFFHLCSELDFGSWGQGTQVTVSS
# B2: 7A9 VHH-Fc (Fc fusion)
# chain: QVQLVESGGGLVQAGGSLRLSCSASGGTASRSAMGWFRQAPGKEREFVAGISRRNSGSTYVADSYEDSVKGRFTISRDNAKNTIYLQMNSLKPEDTAVYYCAAEPTLGWYVPRRSVEYEYWGQGTQVTVSS
# B3: 19B8 VHH-Fc (Fc fusion)
# chain: QVQLVESGGGLVQAGGSLRLSCAASGRTFTNYAMGWFRQAPGKEREFVAAISWSGGGTNYADSVKGRFTISRDNAKNTVYLQMNSPKPEDTAVYYCATTLGYYGSSSRLYEYWGQGTQVTVSS
# B4: 16H7 VHH-Fc (Fc fusion)
# chain: QVQLVESGGGLVQAGGSLRLSCAASGRAFSKDTMGWFRQAPGKEREFVAVISASGDSTYYADFVKGRFTISRDNAKNTEYLQMNSLKPEDTAVYHCAADGARAYYSINAHRYSWAYNYWGQGTQVTVSS
# B5: 20D11 VHH-Fc (Fc fusion)
# chain: QVQLVESGGGLVQAGGSLRLSCAASGRTSSIYSVGWFRQAPGKERELVAGITWSGGTTYYSDSVKGRFTISRDNAKNTVNLQMNNLKPEDTAIYYCAVDRYSMTMSARDYDYWGQGTQVTVSS
# B6: 5G11 VHH-Fc (Fc fusion)
# chain: B5 chain with S29F, S33A, E46D, L47F, N80Y, R100T, M105L, D109S
# B7: 14F3 VHH-Fc (Fc fusion)
# chain: B5 chain with S33G, G50L, R72K, N80F, R100T, D111E
# B8: 11F5 VHH-Fc (Fc fusion)
# chain: QVQLVESGGGAVQAGDSLRLSCTASGRTFSTYAVGWFRQAPGKERELLAAITGSGRNPYYPDSLKGRFTISREYAKLPVYLQMNSLKPEDTAVYYCAARRGAIATMPLDYDHWGQGTQVTVSS
# B9: 6A1 VHH-Fc (Fc fusion)
# chain: QVQLVESGGGLVQAGGSLRLSCTASGNIFSVNVMGWHRQAPGKRRELVAALTNDGRRNYADSVKGRFTISRDNAKNTIYLEMNSLKPEDTAVYYCGTGTLESGFNSWGQGLQVTVSS
# B10: 11F8 VHH-Fc (Fc fusion)
# chain: QVQLVESGGGLVQAGGSLRLSCAASGRTVGYYAVGWFRQAPGKERDFVAAISWSGRNTNYADSVTGRFTIFRDNAKNTVDLQMNSLKPEDTAVYYCAADYWNYGSGSEVPNNYDTWGQGTQVTVSS
# B11: 8E9 VHH-Fc (Fc fusion)
# chain: QVQLVESGGGLVEAGGSLRLSCVASGSSSSINAMGWYRQAPGKQRELVASISHDGETKYANSVKGRFTISRGNAKNTIYLQMNSLKPEDTAVYYCVGDVAWVVVAGEYDYWGQGTQVTVSS
# B12: 13C8 VHH-Fc (Fc fusion)
# chain: QVQLVESGGGLVQAGGSLRLSCAASGRTVNKYMTGWFRQTPGKEREFVASIDWSSTTTHYANSVKGRFTISRDKVKNTVYLQMNGLKPEDTAVYYCAAHQDSSYGYTILPIDYDSWGQGTQVTVSS
# B13: 15H1 VHH-Fc (Fc fusion)
# chain: QVQLVESGGGLAQAGGSLRLSCASSGLIFSGSAMGWFRQAPGKEREFVGVISWNGRTTYADSVKGRFTISRDDAVNMVWLQMNNLKPEDTAVYYCAADHLNYGSGDVNPRTYDYWGQGTQVTVSS
# B14: 15H7 VHH-Fc (Fc fusion)
# chain: QVQLVESGGRLVQAGGSLRLSCAAPGRTFRNLTLGWFRQAPGKEREFVASTSWPDDEMTYYTDSVKGRFTISRDNAKNTVYLQMNSLKPEDTAVYYCAAASWSGRSTLSYDYDYWGQGTQVTVST
# B15: 1A11 VHH-Fc (Fc fusion)
# chain: QVQLVESGGGLVQAGGSLRLSCEVSGSIYSINSMGWYRQAPGKQRELVAGIVSDGRINYADSVKGRFTISRAKNTVYLQMNSLKPEDTAVYYCAADRAFVYAGDYDYLGQGTQVTVSS
# B16: 1E4 VHH-Fc (Fc fusion)
# chain: QVLLVESGGGLVQAGGLLRLACSASGRTFTENVMGWFRQAPGKEREFVAAINWNTGSTYYSDSRKGRFTISKDNAKNTMFLQINNLKPEDTAVYYCGGTSSSYYYIGEFIPDYWGQGTQVTVSS
# B17: 19E10 VHH-Fc (Fc fusion)
# chain: QVQLVESGGGLVQPGGSLRLSCVASGSTISINSMGWYRQAPGKAREMVATITNDGPIKYADPVKGRFTISRDNPKNTVYLQMNSLKPEDTAVYYCVADRAYWLAGEWEYWGQGTQVTVSS
# B18: 5D7 VHH-Fc (Fc fusion)
# chain: QVQLVESGGGLVQAGGSLRLSCAASGRTGSRYIMGWFRQAPGKEREFVAAINWRGDSTYYADSVKGRFTIARDNAKNTAYLQMNSLKPEDTAVYYCVADRGESYYYTRSTEYTYWGQGTQVTVSS
# B19: 10B8 VHH-Fc (Fc fusion)
# chain: QVQLVESGGGLVQPGGSLRLSCAASGITLDYYAIAWFRQAPGKEREGVSCFCSSDGDIRYADSVKGRFTISRDNAKNTVYLQMNSLKPEDTAVYYCATERVYSSTWFFHRYSELDFGSWGRGTQVTVSS
# B20: 3D4 VHH-Fc (Fc fusion)
# chain: QVQLVESGGGLVQPGGSLRLSCAASGFTLDLNSIGWFRQAPGKEREGVSCISPSGSRMHYADSVKGRFTISRDNAKNTVYLQMNSLKPEDTAVYYCATGSPSYHYCSMYGLEYDSWGQGTQVTVPS
# B21: 19C10 VHH-Fc (Fc fusion)
# chain: B20 chain with G55A, R57S, M58T, S100T, S115D, P125S
# B22: 5A6 VHH-Fc (Fc fusion)
# chain: QVQLVESGGGLAQAGGSLRLSCATSGLTFSMSAMGWFRQAPGNEREFVGVINWNGGSSRYADSVRGRFTISRDNAKNTVYLQMNSLKPEDTGVYYCAADALNIGTGEVNPRLYDYWGQGTQVMVSS
# Biological target: T1, SARS-CoV-2 spike protein, Delta B.1.617.2 variant (Acro Biosystems SPN-C52He) (SARS-CoV-2)
# T1 construct: bought
# Assay: ELISA
row,Binder,EC50 [nM]
1,B1,0.06
2,B2,0.17
3,B3,0.08
4,B4,0.62
5,B5,0.69
6,B6,0.36
7,B7,0.03
8,B8,0.05
9,B9,0.27
10,B10,0.11
11,B11,0.06
12,B12,0.18
13,B13,0.1
14,B14,0.06
15,B15,0.2
16,B16,0.06
17,B17,0.04
18,B18,0.06
19,B19,0.85
20,B20,0.08
21,B21,0.1
22,B22,0.08

# Biological target: SARS-CoV-2 spike protein, Alpha B.1.1.7 variant (Acro Biosystems SPN-C52H6) (SARS-CoV-2)
# Assay: ELISA
row,Binder,EC50 [nM]
1,B1,0.06
2,B2,0.13
3,B3,0.63
4,B4,0.06
5,B5,0.03
6,B6,0.22
7,B7,0.03
8,B8,0.05
9,B9,0.2
10,B10,0.08
11,B11,0.06
12,B13,0.05
13,B14,0.05
14,B15,0.04
15,B16,0.62
16,B17,0.06
17,B18,0.74
18,B19,0.05
19,B20,0.11
20,B21,0.18
21,B22,0.11

# Biological target: T2, SARS-CoV-2 spike protein, Beta B.1.351 variant (Acro Biosystems SPN-C52Hk) (SARS-CoV-2)
# T2 construct: bought
# Assay: ELISA
row,Binder,EC50 [nM]
1,B1,0.07
2,B2,0.13
3,B3,0.26
4,B4,0.18
5,B5,0.06
6,B6,0.23
7,B7,0.08
8,B8,0.06
9,B9,0.2
10,B10,0.21
11,B11,0.1
12,B12,0.24
13,B13,0.1
14,B14,0.07
15,B15,0.62
16,B16,0.03
17,B17,0.05
18,B18,0.22
19,B19,0.03
20,B20,0.09
21,B21,0.04
22,B22,0.15

# Biological target: T3, SARS-CoV-2 spike protein, Omicron BA1.1 (Acro Biosystems SPN-C52Hz) (SARS-CoV-2)
# T3 construct: bought
# Assay: ELISA
row,Binder,EC50 [nM]
1,B1,0.18
2,B2,0.19
3,B3,0.04
4,B4,0.03
5,B5,0.53
6,B6,0.26
7,B7,0.03
8,B8,0.04
9,B9,0.2
10,B11,0.6
11,B15,0.64
12,B17,0.09
13,B18,0.22
14,B19,2.81

# Biological target: T4, SARS-CoV-2 spike protein, Gamma P.1 variant (Acro Biosystems SPN-C52Hg) (SARS-CoV-2)
# T4 construct: bought
# Assay: ELISA
row,Binder,EC50 [nM]
1,B1,0.05
2,B2,0.12
3,B3,0.17
4,B4,0.04
5,B5,0.56
6,B6,0.21
7,B7,0.03
8,B8,0.05
9,B9,0.18
10,B10,0.14
11,B11,0.15
12,B12,0.23
13,B13,0.09
14,B14,0.06
15,B15,0.24
16,B16,0.03
17,B17,0.03
18,B18,0.09
19,B19,1.11
20,B20,0.09
21,B21,0.14
22,B22,0.1
